Source: patent US20260063625A1, “COMPOSITIONS FOR AND METHODS OF DETECTING FOOD TOXINS” (priority 2022, published 2026)

Assay: Isothermal titration calorimetry (ITC) of STX into Sxph
Settings: 25° C., single binding site model

Row | Molecule | N (sites), stoichiometry | other results
1 | F561A: RcSxph mutant F561A (protein) MAPTFQTALFFTIISLSFAAPNAKQVRWCAISDLEQKKCNDLVGSCNVPDITLVCVLRSSTEDCMTAIKDGQADAMFLDSGEVYEASKDPYNLKPIIAEPYSSNRDLQKCLKERQQALAKKMIGHYIPQCDEKGNYQPQQCHGSTGHCWCVNAMGEKISGTNTPPGQTRATCERHELPKCLKERQVALGGDEKVLGRFVPQCDEKGNYEPQQFHGSTGYSWCVNAIGEEIAGTKTPPGKIPATCQKHDLVTTCHYAVAMVKKSSAFQFNQLKGKRSCHSGVSKTDGWKALVTVLVEKKLLSWDGPAKESIQRAMSKFFSVSCIPGATQTNLCKQCKGEEGKNCKNSHDEPYYGNYGAFRCLKEDMGDVAFLRSTALSDEHSEVYELLCPDNTRKPLNKYKECNLGTVPAGTVVTRKISDKTEDINNFLMEAQKRQCKLFSSAHGKDLMFDDSTLQLALLSSEVDAFLYLGVKLFHAMKALTGDAHLPSKNKVRWCTINKLEKMKCDDWSAVSGGAIACTEASCPKGCVKQILKGEADAVKLEVQYMYEALMCGLLPAVEEYHNKDDFGPCKTPGSPYTDAGTLRAVALVKKSNKDINWNNIKGKKSCHTGVGDIAGWVIPVSLIRRQNDNSDIDSFFGESCAPGSDTKSNLCKLCIGDPKNSAANTKCSLSDKEAYYGNQGAFRCLVEKGDVAFVPHTVVFENTDGKNPAVWAKNLKSEDFELLCLDGSRAPVSNYKSCKLSGIPPPAIVTREESISDVVRIVANQQSLYGRKGFEKDMFQLFSSNKGNNLLFNDNTQCLITFDRQPKDIMEDYFGKPYYTTVYGASRSAMSSELISACTIKHC | 1.07 ± 0.01 sites | –
2 | P727A: RcSxph mutant P727A (protein) MAPTFQTALFFTIISLSFAAPNAKQVRWCAISDLEQKKCNDLVGSCNVPDITLVCVLRSSTEDCMTAIKDGQADAMFLDSGEVYEASKDPYNLKPIIAEPYSSNRDLQKCLKERQQALAKKMIGHYIPQCDEKGNYQPQQCHGSTGHCWCVNAMGEKISGTNTPPGQTRATCERHELPKCLKERQVALGGDEKVLGRFVPQCDEKGNYEPQQFHGSTGYSWCVNAIGEEIAGTKTPPGKIPATCQKHDLVTTCHYAVAMVKKSSAFQFNQLKGKRSCHSGVSKTDGWKALVTVLVEKKLLSWDGPAKESIQRAMSKFFSVSCIPGATQTNLCKQCKGEEGKNCKNSHDEPYYGNYGAFRCLKEDMGDVAFLRSTALSDEHSEVYELLCPDNTRKPLNKYKECNLGTVPAGTVVTRKISDKTEDINNFLMEAQKRQCKLFSSAHGKDLMFDDSTLQLALLSSEVDAFLYLGVKLFHAMKALTGDAHLPSKNKVRWCTINKLEKMKCDDWSAVSGGAIACTEASCPKGCVKQILKGEADAVKLEVQYMYEALMCGLLPAVEEYHNKDDFGPCKTPGSPYTDFGTLRAVALVKKSNKDINWNNIKGKKSCHTGVGDIAGWVIPVSLIRRQNDNSDIDSFFGESCAPGSDTKSNLCKLCIGDPKNSAANTKCSLSDKEAYYGNQGAFRCLVEKGDVAFVPHTVVFENTDGKNPAVWAKNLKSEDFELLCLDGSRAPVSNYKSCKLSGIPAPAIVTREESISDVVRIVANQQSLYGRKGFEKDMFQLFSSNKGNNLLFNDNTQCLITFDRQPKDIMEDYFGKPYYTTVYGASRSAMSSELISACTIKHC | 0.97 ± 0.03 sites | –
3 | E540D: RcSxph mutant E540D (protein) MAPTFQTALFFTIISLSFAAPNAKQVRWCAISDLEQKKCNDLVGSCNVPDITLVCVLRSSTEDCMTAIKDGQADAMFLDSGEVYEASKDPYNLKPIIAEPYSSNRDLQKCLKERQQALAKKMIGHYIPQCDEKGNYQPQQCHGSTGHCWCVNAMGEKISGTNTPPGQTRATCERHELPKCLKERQVALGGDEKVLGRFVPQCDEKGNYEPQQFHGSTGYSWCVNAIGEEIAGTKTPPGKIPATCQKHDLVTTCHYAVAMVKKSSAFQFNQLKGKRSCHSGVSKTDGWKALVTVLVEKKLLSWDGPAKESIQRAMSKFFSVSCIPGATQTNLCKQCKGEEGKNCKNSHDEPYYGNYGAFRCLKEDMGDVAFLRSTALSDEHSEVYELLCPDNTRKPLNKYKECNLGTVPAGTVVTRKISDKTEDINNFLMEAQKRQCKLFSSAHGKDLMFDDSTLQLALLSSEVDAFLYLGVKLFHAMKALTGDAHLPSKNKVRWCTINKLEKMKCDDWSAVSGGAIACTEASCPKGCVKQILKGEADAVKLEVQYMYEALMCGLLPAVDEYHNKDDFGPCKTPGSPYTDFGTLRAVALVKKSNKDINWNNIKGKKSCHTGVGDIAGWVIPVSLIRRQNDNSDIDSFFGESCAPGSDTKSNLCKLCIGDPKNSAANTKCSLSDKEAYYGNQGAFRCLVEKGDVAFVPHTVVFENTDGKNPAVWAKNLKSEDFELLCLDGSRAPVSNYKSCKLSGIPPPAIVTREESISDVVRIVANQQSLYGRKGFEKDMFQLFSSNKGNNLLFNDNTQCLITFDRQPKDIMEDYFGKPYYTTVYGASRSAMSSELISACTIKHC | 0.98 ± 0.02 sites | –
4 | D794E: RcSxph mutant D794E (protein) MAPTFQTALFFTIISLSFAAPNAKQVRWCAISDLEQKKCNDLVGSCNVPDITLVCVLRSSTEDCMTAIKDGQADAMFLDSGEVYEASKDPYNLKPIIAEPYSSNRDLQKCLKERQQALAKKMIGHYIPQCDEKGNYQPQQCHGSTGHCWCVNAMGEKISGTNTPPGQTRATCERHELPKCLKERQVALGGDEKVLGRFVPQCDEKGNYEPQQFHGSTGYSWCVNAIGEEIAGTKTPPGKIPATCQKHDLVTTCHYAVAMVKKSSAFQFNQLKGKRSCHSGVSKTDGWKALVTVLVEKKLLSWDGPAKESIQRAMSKFFSVSCIPGATQTNLCKQCKGEEGKNCKNSHDEPYYGNYGAFRCLKEDMGDVAFLRSTALSDEHSEVYELLCPDNTRKPLNKYKECNLGTVPAGTVVTRKISDKTEDINNFLMEAQKRQCKLFSSAHGKDLMFDDSTLQLALLSSEVDAFLYLGVKLFHAMKALTGDAHLPSKNKVRWCTINKLEKMKCDDWSAVSGGAIACTEASCPKGCVKQILKGEADAVKLEVQYMYEALMCGLLPAVEEYHNKDDFGPCKTPGSPYTDFGTLRAVALVKKSNKDINWNNIKGKKSCHTGVGDIAGWVIPVSLIRRQNDNSDIDSFFGESCAPGSDTKSNLCKLCIGDPKNSAANTKCSLSDKEAYYGNQGAFRCLVEKGDVAFVPHTVVFENTDGKNPAVWAKNLKSEDFELLCLDGSRAPVSNYKSCKLSGIPPPAIVTREESISDVVRIVANQQSLYGRKGFEKDMFQLFSSNKGNNLLFNDNTQCLITFDRQPKDIMEEYFGKPYYTTVYGASRSAMSSELISACTIKHC | 0.99 ± 0.01 sites | –
5 | NpSxph: Saxiphilin of Nanorana parkeri, High Himalaya frog, SEQ ID NO:2 (protein, listed as Nanorana parkeri) MALTFHTALYFTIVGLSFAASDARHVQWCTISHLEQKKCNDLVGSCNVPDITLACVYRSSTENCMAAIKDGQADAMFLDSGDVYKASLDHYNLKPIIAEPYSLHRELTKCLKHRQESLGGDKMVKGRYIPQCDEKGNYHPVQCHASTGYCWCVNANGEKIEGTNTTPVQTPPTCPSQVLTKCLKERQEALGGKRIAIGRYIPQCDEQGNYRPMQCHGSTGYCWCVNAIGEKIEGTNTPPGNTQPTCQSHDWDTCHYAVAVVKNSSTFQFGQLKGKRSCHSGLSKTDGWNAPVNVFVEKKLLPWDGLAKGSIERAVSKFFSASCIPGATETNLCKQCIGEEEKKCKSSHDEPYYGDHGAFRCLQEDKGDVAFLKNTALPDEHSGVYELLCPDNTRKPLNKYKECNLGKVPADAVVTRKAGDKTKDINDFLLEAQKKKCKLFGSPHGKDLMFDDSTTHLAPLPSEIDAFFFLGVKWYNAMKALTEDVKLPSKNKVRWCTINKPEMMKCKDWAAVSGGAIACTEASCPEHCVKQILKGEADAVTLDVQYMYMALMCGLLPAVEEYPNKDDFHPCQIPGSTIKDFGTKRAVALVKKSNKDIKWNNLKGKKSCHTHVGDIPGWVIPAGLISNQNDNIDIESFFGESCAPGSDTNSKLCKLCIGDPENPKASTRCSLSDKEAYYGNEGAFRCLVEKGDVAFVPHTVVFANTDGKNPAEWAKDLKSEDFEILCLDGSRAPVTNYRGCNLSGLPPRAIVTREESVSDVVRILINQQSLYGRNGFEKDMFQMFSSAKGQNLLFNDETQCLIEFDRQPKDIMEDYFGVRYYTAVYSASRSAVPSELIPACTFKHC | – | N (sites), stoichiometry (listed as NpSxph WT): 0.92 ± 0.02 sites
6 | RcSxph: Saxiphilin of Rana (Lithobates) catesbeianus, American bullfrog, SEQ ID NO:1 (protein) MAPTFQTALFFTIISLSFAAPNAKQVRWCAISDLEQKKCNDLVGSCNVPDITLVCVLRSSTEDCMTAIKDGQADAMFLDSGEVYEASKDPYNLKPIIAEPYSSNRDLQKCLKERQQALAKKMIGHYIPQCDEKGNYQPQQCHGSTGHCWCVNAMGEKISGTNTPPGQTRATCERHELPKCLKERQVALGGDEKVLGRFVPQCDEKGNYEPQQFHGSTGYSWCVNAIGEEIAGTKTPPGKIPATCQKHDLVTTCHYAVAMVKKSSAFQFNQLKGKRSCHSGVSKTDGWKALVTVLVEKKLLSWDGPAKESIQRAMSKFFSVSCIPGATQTNLCKQCKGEEGKNCKNSHDEPYYGNYGAFRCLKEDMGDVAFLRSTALSDEHSEVYELLCPDNTRKPLNKYKECNLGTVPAGTVVTRKISDKTEDINNFLMEAQKRQCKLFSSAHGKDLMFDDSTLQLALLSSEVDAFLYLGVKLFHAMKALTGDAHLPSKNKVRWCTINKLEKMKCDDWSAVSGGAIACTEASCPKGCVKQILKGEADAVKLEVQYMYEALMCGLLPAVEEYHNKDDFGPCKTPGSPYTDFGTLRAVALVKKSNKDINWNNIKGKKSCHTGVGDIAGWVIPVSLIRRQNDNSDIDSFFGESCAPGSDTKSNLCKLCIGDPKNSAANTKCSLSDKEAYYGNQGAFRCLVEKGDVAFVPHTVVFENTDGKNPAVWAKNLKSEDFELLCLDGSRAPVSNYKSCKLSGIPPPAIVTREESISDVVRIVANQQSLYGRKGFEKDMFQLFSSNKGNNLLFNDNTQCLITFDRQPKDIMEDYFGKPYYTTVYGASRSAMSSELISACTIKHC | – | N (sites), stoichiometry (listed as RcSxph WT): 1.02 ± 0.01 sites
